Laboratory results reported in article PMC5762688, “Recognition by host nuclear transport proteins drives disorder-to-order transition in Hendra virus V” (2018).

Target: Importin α2/β1 heterodimer (mouse), tagless recombinant, preformed, mouse, P52293 1-529; P70168 1-876
Test: circular dichroism

“Hendra virus V protein L174A/L177A, tagless recombinant” was tested, and the result was “binds”.
